Measured values as given in publication PMC10374059.
The exact form of at least one protein or probe is not confirmed. For part of these data: Negatives hold for the conditions tested. For part of these data: At least one verdict was read from the data and is not stated in words by the source.

Assays:
rKAP68-His (TbKAP68) [1] = assay: EMSA; conditions: 200 and 100 ng protein shift almost all of 20 fmol DNA, shift drops gradually at 50, 25, 6.25 ng, no dI-dC, LightShift chemiluminescent EMSA kit binding buffer, 0.1% digitonin, 0.01% BSA, 20 fmol biotinylated DNA, 4 pmol unlabeled competitor, 6% acrylamide gel, recombinant protein, protein details: C-terminal 6xHis
[2] = test system: MBP-rmtHMG44 (TbmtHMG44) (Trypanosoma brucei 427); assay: EMSA; conditions: LightShift chemiluminescent EMSA kit binding buffer, 0.1% digitonin, 0.01% BSA, no dI-dC, 20 fmol biotinylated DNA, 4 pmol unlabeled competitor, 6% acrylamide gel; recombinant protein; protein details: N-terminal MBP
rKAP68-His (TbKAP68) [3] = assay: competition with a labelled probe; conditions: 200-fold excess of unlabeled same DNA competes; LightShift chemiluminescent EMSA kit binding buffer, 0.1% digitonin, 0.01% BSA, no dI-dC, 20 fmol biotinylated DNA, 4 pmol unlabeled competitor, 6% acrylamide gel; recombinant protein; protein details: C-terminal 6xHis

“GAAAAAACGGAAAATCTTATGGGCGTGCAAAAATACACATACACAAATCCCGTGCTTATTTTAGGCCATTTTT (double strand) [CM-DNA, conserved minicircle 73 bp]”: binds (rKAP68-His (TbKAP68) [1]); no binding [2]; binds (rKAP68-His (TbKAP68) [3]).
